The values below are quoted from earlier work in patent publication US20120121679A1, “VIRICIDAL AND MICROBICIDAL COMPOSITIONS AND USES THEREOF” (University of Georgia Research Foundation, Inc., priority 2009, published 2012).

For this series, the system named is FCV. The following applies: 3,000 ppm chlorine, 10 min, room temperature, virus suspended in cell culture media; cited from earlier work.

As to chlorine, the “inactivation of FCV” value was 3 log PFU/ml.
